{"source": "PubChem BioAssay AID504761 | Drosophila RNAi Screening Center, 2011", "test": "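Genome-wide fly cell screen for genes dengue virus requires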 (primary screen)", "cells": "D.Mel-2 cells from Drosophila", "reagent": "long dsRNA against Drosophila genes", "treatment": "infection with dengue virus type 2; dose and infection time not stated", "read-out": "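Per well on two replicate plates, imaging gave the percent of cells positive for viral envelope protein, ranked by infection, and a nuclear count of cells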", "scale": "infection score: higher = more virus-infected cells; cell count: higher = more cells in the well", "active means": "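Very low infection ranking in both replicate wells (chance probability at most 0.065), then a retest showing infection dropped 1.5-fold or more at p below 0.05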", "meaning of the calls": "active = confirmed: knock-down lowers infection; inactive = not picked or not confirmed", "note": "In all, the deposit lists about 22,000 reagents; shown is a random part of those that have a named target and a result. In the full data, 116 (0.52%) are marked active. 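Calls depend on retest data that are not deposited; infection was ranked per plate without normalising between plates; the unit of the infection score is not given.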 Raw values are not corrected between plates. Further read-outs or replicates are left out here. The record does not give: the amount of reagent, the time to read-out."}
The first 2 entries as a preview:
{"gene": "Acsx4", "dsRNA": "DRSC14311", "infection score, replicate 1": 30.3, "cell count, replicate 1": 5240, "outcome": "inactive"}
{"gene": "Acsx4", "dsRNA": "DRSC27646", "infection score, replicate 1": 5.55, "cell count, replicate 1": 6288, "outcome": "inactive"}

Results, from the first entry:
{"gene": "Acsx4", "dsRNA": "DRSC14311", "infection score, replicate 1": 30.3, "cell count, replicate 1": 5240, "outcome": "inactive"}
{"gene": "Acsx4", "dsRNA": "DRSC27646", "infection score, replicate 1": 5.55, "cell count, replicate 1": 6288, "outcome": "inactive"}
{"gene": "CG6693", "dsRNA": "DRSC28189", "infection score, replicate 1": 6.92, "cell count, replicate 1": 5824, "outcome": "inactive"}
{"gene": "Gnpnat", "dsRNA": "DRSC15405", "infection score, replicate 1": 1.61, "cell count, replicate 1": 5906, "outcome": "inactive"}
{"gene": "CG5139", "dsRNA": "DRSC00681", "infection score, replicate 1": 1.91, "cell count, replicate 1": 7072, "outcome": "inactive"}
{"gene": "CG5139", "dsRNA": "DRSC26541", "infection score, replicate 1": 4.61, "cell count, replicate 1": 6441, "outcome": "inactive"}
{"gene": "Sod2", "dsRNA": "DRSC07554", "infection score, replicate 1": 7.67, "cell count, replicate 1": 6314, "outcome": "inactive"}
{"gene": "Sod2", "dsRNA": "DRSC27050", "infection score, replicate 1": 5.04, "cell count, replicate 1": 6507, "outcome": "inactive"}
{"gene": "MED8", "dsRNA": "DRSC06426", "infection score, replicate 1": 2.61, "cell count, replicate 1": 6320, "outcome": "inactive"}
{"gene": "Tb", "dsRNA": "DRSC15815", "cell count, replicate 1": 328, "outcome": "inactive"}
{"gene": "Tb", "dsRNA": "DRSC23554", "infection score, replicate 1": 5.16, "cell count, replicate 1": 6187, "outcome": "inactive"}
{"gene": "CG5435", "dsRNA": "DRSC02860", "infection score, replicate 1": 1.7, "cell count, replicate 1": 5899, "outcome": "inactive"}
{"gene": "CG14286", "dsRNA": "DRSC14767", "infection score, replicate 1": 4.96, "cell count, replicate 1": 6579, "outcome": "inactive"}
{"gene": "CG14286", "dsRNA": "DRSC29125", "cell count, replicate 1": 342, "outcome": "inactive"}
